# According to article PMC10935098 (Molecules, 2024):
# Tested on: C57BL/6 mice
# Test: In vivo toxicity analysis
smiles,measurement,setting,value
CC(C)C[C@@H]1NC(=O)[C@@H](CCCCN)NC(=O)[C@@H]2CSSC[C@H](NC(=O)[C@H](CC(C)C)NC(=O)[C@@H](CCCCN)NC(=O)[C@@H](CCCCN)NC(=O)[C@@H](N)CC(C)C)C(=O)N[C@@H](CSSC[C@@H](C(N)=O)NC(=O)[C@@H](CCCCN)NC1=O)C(=O)N[C@H](CCCCN)C(=O)N2 [Pep 6],In vivo safety in mice,10 mg/kg daily intraperitoneal injection for seven days (method: six days),exceptionally biologically secure
same,Decrease in body weight of treated mice,"10 mg/kg daily intraperitoneal injection, first day",approximately 1 g
